Compound potency records, mixed from different reports. Data source: NIAID ChemDB in PubChem.

MIC bound: limit read from a one-dose screen. Inhibition is in % at the dose shown (toxicity tests: loss of growth or viability). ICn: concentration for n% inhibition. Blank or dashed fields: not listed here. Lines come from different laboratories, so protocols vary.

smiles	method	tested at	strain or isolate	endpoint	protein	agent	test	value
NS(=O)(=O)c1cc2c(cc1Cl)NC(CCC(=O)O)=NS2(=O)=O	resazurin	-	H37Rv	MIC bound	-	Mycobacterium tuberculosis	culture	>6.25 µg/mL
O=C(O)c1ccc(C(=O)c2ccccc2C(=O)O)cc1	-	-	H37Rv	MIC	-	Mycobacterium tuberculosis	culture	50 µg/mL
CCOC(=O)c1cc(-c2ccccc2)c(OC)c(=O)nc1-c1ccccc1	BACTEC	12.5 µg/mL	H37Rv	inhibition	-	Mycobacterium tuberculosis	culture	12%
Nc1cc(C(=O)c2ccccc2C(=O)O)ccc1NS(=O)(=O)c1ccccc1	-	-	H37Rv	MIC	-	Mycobacterium tuberculosis	culture	>100 µg/mL
CC(=O)c1ccc(-c2cncc(N3CCN(c4ccccn4)CC3)n2)cc1	-	-	-	IC50	UL97 kinase	Cytomegalovirus	target	<10 µM
CCN(CC)CCCc1ccncc1	-	-	H37Rv	MIC	-	Mycobacterium tuberculosis	culture	>100 µg/mL
Fc1ccc(N2CCCCC2)c(NC(=S)c2ccncc2)c1	kinase activity	10 µM	-	inhibition	PKCbeta1	-	host protein	5.7%
CC1C(C(=O)O)C(c2ccco2)=NN1c1ccccc1	-	-	H37Rv	MIC bound	-	Mycobacterium tuberculosis	culture	>6.25 µg/mL
CC(=O)c1ccc(-c2cncc(N3CCN(c4cccc(C)c4C)CC3)n2)s1	-	-	-	IC50	UL97 kinase	Cytomegalovirus	target	<100 µM
CCOC(=O)c1c(O)cc2ccccc2c1O	-	-	H37Rv	MIC	-	Mycobacterium tuberculosis	culture	>100 µg/mL
NC(=O)c1cc2cc(CN3CCCCC3)ccc2o1	BACTEC	-	H37Rv	MIC bound	-	Mycobacterium tuberculosis	culture	>6.25 µg/mL
Cc1cc(C)c(C2=CCCC(C(=O)O)O2)c(C)c1	-	-	H37Rv	MIC	-	Mycobacterium tuberculosis	culture	50 µg/mL
COc1ccc(-c2cncc(N3CCN(c4ccccc4OC)CC3)n2)cc1OC	-	1 µM	-	inhibition	UL97 kinase	Cytomegalovirus	target	<50%
CCOC(=O)c1c(-c2ccccc2)[nH]c2ccc(OC)cc2c1=O	-	-	H37Rv	MIC	-	Mycobacterium tuberculosis	culture	>100 µg/mL
COc1cc(/C=N/NC(=O)C(=O)N/N=C/c2cc(OC)c(OC)c(OC)c2)cc(OC)c1OC	BACTEC	12.5 µg/mL	H37Rv	inhibition	-	Mycobacterium tuberculosis	culture	-1%
COc1ccc(N2CCN(c3cncc(-c4ccc(F)cc4)n3)CC2)cc1	-	-	-	IC50	UL97 kinase	Cytomegalovirus	target	<10 µM
N#Cc1nc(CC(=O)c2ccccc2Cl)c(CC(=O)c2ccccc2Cl)nc1C#N	BACTEC	12.5 µg/mL	H37Rv	inhibition	-	Mycobacterium tuberculosis	culture	58%
CN(C)c1ccc(-c2cncc(N3CCN(c4ccccc4)CC3)n2)cc1	-	1 µM	-	inhibition	UL97 kinase	Cytomegalovirus	target	<50%
c1ccc(Nc2nc(Nc3ccccc3)n(-c3ccccc3)n2)cc1	-	-	H37Rv	MIC	-	Mycobacterium tuberculosis	culture	25 µg/mL
O=C(N=Nc1c(O)[nH]c2ccc(Br)cc12)c1ccco1	BACTEC	-	H37Rv	MIC	-	Mycobacterium tuberculosis	culture	≥12.5 µg/mL
CC(C)c1ccc(-c2cncc(N3CCN(c4ccncc4)CC3)n2)cc1	-	-	-	IC50	UL97 kinase	Cytomegalovirus	target	<1 µM

Repeating the final 2 entries:

O=C(N=Nc1c(O)[nH]c2ccc(Br)cc12)c1ccco1 ; method: BACTEC ; strain or isolate: H37Rv ; endpoint: MIC ; agent: Mycobacterium tuberculosis ; test: culture ; value: ≥12.5 µg/mL
CC(C)c1ccc(-c2cncc(N3CCN(c4ccncc4)CC3)n2)cc1 ; endpoint: IC50 ; protein: UL97 kinase ; agent: Cytomegalovirus ; test: target ; value: <1 µM